Experimental data reported in US20150253335.

test system: crypto-M. tuberculosis MAS (FAS/PKS hybrid) labeled with coumarin-PPant

Row | Substance | AcpH qualitative CP activity
1 | annotated hypothetical AcpH homolog from Shewanella oneidensis MR-1 | no
2 | acyl carrier protein hydrolase (AcpH) from Cyanothece PCC 7822 | no
3 | acyl carrier protein hydrolase (AcpH) from Pseudomonas aeruginosa PAO1 | no
